Laboratory results: paper PMC2693028 (ChemMedChem, 2008)
Where “and” joins values, the source holds several entries; their conditions need not be identical. Equal values may be shown once.

Tests used:
[1] = tested on: Klebsiella pneumoniae (ATCC strain 700603); assay type: cell-based
ΔANR B. anthracis = assay type: cell-based, Bacillus anthracis
[2] = tested on: methicillin–resistant Staphylococcus aureus (ATCC strain 43300); assay type: cell-based
[3] = tested on: Escherchia coli (ATCC strain 25922); assay type: cell-based
[4] = tested on: vancomycin–resistant Enterococcus (VRE) (ATCC strain 51299); assay type: cell-based
[5] = tested on: Enterococcus fecalis (ATCC strain 29212); assay type: cell-based
[6] = tested on: Listeria monocytogenes (10403S); assay type: cell-based
[7] = tested on: Sterne strain B. anthracis; assay type: cell-based, Bacillus anthracis
HeLa cells = details: human

For `O=[N+]([O-])c1ccc(Oc2ccc(Cl)cc2O)c(Cl)c1` [Compound 6, 5-Chloro-2-(2-chloro-4-nitrophenoxy)phenol], the MBC/MIC [1] was 7.1, the MBC/MIC (ΔANR B. anthracis) was 1.4 and the MBC/MIC [2] was 1.6–1.9 and 1.6. It also gave an MBC/MIC [3] of 48.0, an MBC/MIC [4] of 6.6 and an MBC/MIC [5] of 7.1. The MBC/MIC [6] was 5.0, the MBC/MIC [7] was 2.1 and the EC50/MIC ratio (HeLa cells) was 15–20.
